Read-outs that look alike come from different tables or passages of the source.
Tests used:
HIV-1LAI = system: HIV-1LAI
Source text: PBM cells were isolated as follows: Lymphocytes were isolated from buffy coats derived from healthy donors obtained from Life South Laboratories (Dunwoody, Ga.). Activated lymphocytes were maintained for 72 hrs in medium that was supplemented with […] phytohemagglutinin (PHA) (Cape Cod associates, East Falmouth, Mass.). Media was comprised of RPMI media supplemented with 20% fetal calf serum, 1% penicillin/streptomyocin and 2% L-glutamine (Sigma Aldrich, San Jose, Calif.).
PBM cell infections: Testing was performed in duplicate with at least 3 independent assays. Cells were incubated in RPMI medium (HyClone, Logan, Utah) containing HR-IL2 (26.5 units/ml) and 20% fetal calf serum. Infections were performed by adding HIV-1LA1 followed by a further incubation at 37° C., 5% CO2, 1 hr prior to addition of drugs. Assays were performed in 24 well plates (BD Biosciences, Franklin Lakes, N.J.). One ml of supernatant was collected after 5 days in culture and then centrifuged at 12,000 rpm for 2 hr at 4° C. in a Jouan Br43i (Thermo Electron Corp., Marietta, Ohio). The product of the RT assay was quantified using a Packard harvester and direct beta counter and the data were analyzed as previously described (Schinazi et al, 1990).

[1] = calculated using Propidium Iodide toxicity values

Structure (SMILES): C[C@@H]1CCN(C(=O)CC#N)C[C@@H]1N(C)c1ncnc2[nH]ccc12 [Tofacitinib, 3-{(3R,4R)-4 methyl-3-[methyl-(7H-pyrrolo[2,3-d]pyrimidin-4-yl)-amino]-piperidin-1-yl}-3-oxo-propionitrile]
- TI for antiviral potency against acute HIV-1 infection in PBM cells versus toxicity (HIV-1LAI; calculated using MTT assay toxicity values for PHA + IL-2 stimulated PBM cells): 1.0
- TI for antiviral potency against acute HIV-1 infection in PBM cells versus toxicity (HIV-1LAI; calculated using MTT assay toxicity values for PHA stimulated PBM cells): 8.0
- TI for antiviral potency against acute HIV-1 infection in PBM cells versus toxicity (HIV-1LAI; [1]): >100
- TI for antiviral potency against acute HIV-2 infection in PBM cells versus toxicity (HIV-2; calculated using MTT assay toxicity values): 18.5
- TI for antiviral potency against acute HIV-2 infection in PBM cells versus toxicity (HIV-2; [1]): >50

Reference: patent US20190134039A1, “ANTIVIRAL JAK INHIBITORS USEFUL IN TREATING OR PREVENTING RETROVIRAL AND OTHER VIRAL INFECTIONS” (EMORY UNIVERSITY, priority 2011, published 2019)
